Pooled drug test results. Numbers come from NIAID ChemDB, via PubChem.

Shared fields: growth or infection tests; organism: Candida albicans

An empty or dashed field is not shown.

smiles,measure,dose,method,mutations,strain,result
O=C(NCCc1ccc2c(c1)OCO2)C(c1ccccc1)c1ccccc1,MIC80,,broth dilution,Fluconazole-resistant,Clinical isolate,>64 µg/mL
O=C/C=C/c1ccccc1,MIC99.9,,broth dilution,,ATCC 90028,250 µg/mL
C[C@@H](c1nc(-c2ccc(C#N)cc2)cs1)[C@](O)(Cn1cnnc1)c1ccc(F)cc1F,MIC,,,,Isogenic mutant isolate 1,0.004 µg/mL
O=C(Cc1cccc2ccccc12)NCCc1ccc2c(c1)OCO2,MIC80,,broth dilution,Fluconazole-resistant,Clinical isolate,>64 µg/mL
C=C(C)C1CCC(C)CC1O,MIC99.9,,broth dilution,,ATCC 90028,>8000 µg/mL
C[C@H](Cc1ccc(O)c(O)c1)[C@@H](C)Cc1ccc(O)c(O)c1,MIC50,,broth dilution,,CCC 130-2000,125 µg/mL
Cc1ccccc1C(=O)NCCc1ccc2c(c1)OCO2,MIC80,,broth dilution,Fluconazole-resistant,Clinical isolate,32 µg/mL
CC(C)[C@]12CC(=O)[C@H](C)[C@H]1C2,MIC99.9,,broth dilution,,ATCC 90028,>8000 µg/mL
COc1cc(C=O)cc(OC)c1OC,MIC99.9,,broth dilution,,ATCC 90028,4000 µg/mL
CCO[C@@H]1C[C@@H]([C@H](C)[C@H]2CC[C@]3(C)C4=C(CC[C@@]23C)[C@]2(C)CC[C@H](O)C(C)(C)[C@H]2CC4)CC[C@@H]1C,zone,10 µg/disc,agar diffusion / agar,,MTCC 183,25 mm
CC(C)OC(=O)c1ccc(C[N+]2=C(c3ccc(F)cc3F)c3cc4c(cc3CC2)OCO4)cc1.[Br-],MIC80,,broth dilution,Fluconazole-resistant,Clinical isolate,>64 µg/mL
Clc1ccc(COC(Cn2ccnc2)c2ccc(Cl)cc2Cl)c(Cl)c1,MFC100,,broth dilution,,MD 37,32 µg/mL
COc1ccc2c(c1OC)C[N+]1(Cc3ccccc3Cl)CCc3cc4c(cc3C1C2)OCO4.[Br-],MIC80,,broth dilution,Fluconazole-resistant,Clinical isolate,>64 µg/mL
Nc1nc(=O)n([C@H]2CS[C@@H](CO)O2)cc1F,MIC90,,,,85 strains (fluconazole-resistant),1 µg/mL
Cc1ccc(C(C)C)cc1,MIC99.9,,broth dilution,,ATCC 90028,8000 µg/mL
C[C@@H]([C@H]1CC[C@H](C)C(=O)C1)[C@H]1CC[C@]2(C)C3=C(CC[C@@]12C)[C@]1(C)CC[C@H](O)C(C)(C)[C@H]1CC3,zone,5 µg/disc,agar diffusion / agar,,MTCC 183,26 mm
CC(=O)OC/C=C(\C)CCC=C(C)C,MIC99.9,,broth dilution,,ATCC 90028,>8000 µg/mL
O=Cc1cc(O)ccc1O,EC50,,broth dilution / turbidity,,PYCC 3436,0.06 µM
Cc1c(N)nc([C@H](CC(N)=O)NC[C@H](N)C(N)=O)nc1C(=O)N[C@H](C(=O)N[C@H](C)[C@@H](O)[C@H](C)C(=O)N[C@H](C(=O)NCCc1nc(-c2nc(C(=O)NCCC[S+](C)C)cs2)cs1)[C@@H](C)O)C(O[C@@H]1O[C@@H](CO)[C@@H](O)[C@H](O)[C@@H]1O[C@H]1O[C@H](CO)[C@@H](O)[C@H](OC(N)=O)[C@@H]1O)c1cnc[nH]1,MLC,,,,Isolate 94-101,12.5 µg/mL
C=C(C)C1CC=C(C)CC1,MIC99.9,,broth dilution,,ATCC 90028,>8000 µg/mL
O=C(O)c1ccccc1O,EC50,,broth dilution / turbidity,,PYCC 3436,0.05 µM
O=C(/C=C/c1ccccc1)NCCc1ccc2c(c1)OCO2,MIC80,,broth dilution,Fluconazole-resistant,Clinical isolate,>64 µg/mL
COc1ccc(C=O)cc1,MIC90,,agar diffusion / agar,,10261,350–500 µg/mL
O=Cc1cccc(O)c1O,EC50,,broth dilution / turbidity,,ATCC 10231,0.05 µM
C[C@@H](c1ncncc1F)[C@](O)(Cn1cncn1)c1ccc(F)cc1F,MIC90,,,,85 strains (fluconazole-resistant),>8 µg/mL
CC(C)(C)c1ccc(C(=O)NCCc2ccc3c(c2)OCO3)cc1,MIC80,,broth dilution,Fluconazole-resistant,Clinical isolate,>64 µg/mL
C=CCc1ccc(O)c(-c2ccc(O)c(CC=C)c2)c1,MIC,,broth dilution,,YL 353,64 µg/mL
CC(C)=CCCC(C)CCO,MIC99.9,,broth dilution,,ATCC 90028,8000 µg/mL
O=C(Cc1ccccc1O)NCCc1ccc2c(c1)OCO2,MIC80,,broth dilution,Fluconazole-resistant,Clinical isolate,>64 µg/mL

A second listing of 4 rows from above:

smiles	measure	dose	method	mutations	strain	result
COc1ccc2c(c1OC)C[N+]1(Cc3ccccc3Cl)CCc3cc4c(cc3C1C2)OCO4.[Br-]	MIC80		broth dilution	Fluconazole-resistant	Clinical isolate	>64 µg/mL
Nc1nc(=O)n([C@H]2CS[C@@H](CO)O2)cc1F	MIC90				85 strains (fluconazole-resistant)	1 µg/mL
O=C/C=C/c1ccccc1	MIC99.9		broth dilution		ATCC 90028	250 µg/mL
Cc1ccc(C(C)C)cc1	MIC99.9		broth dilution		ATCC 90028	8000 µg/mL

ECn is the concentration giving n% inhibition of infection, replication or growth. Two numbers with a dash give a range or band. Lines come from different laboratories, so protocols vary. MIC50, MIC90 and the like: level of inhibition, or share of isolates inhibited. Zones are inhibition diameters on agar.